The test system of this series is rat primary cortical neurons. In words: Neuroprotection against OA-induced toxicity in rat primary cortical neuronal cultures (MTT). Particulars: OA 10 nM alone.

For the compound `C=C1[C@@H](O)[C@@H]2O[C@]3(CC[C@H](/C=C/[C@@H](C)[C@@H]4CC(C)=C[C@@]5(O[C@H](C[C@@](C)(O)C(=O)O)CC[C@H]5O)O4)O3)CC[C@H]2O[C@@H]1[C@@H](O)C[C@H](C)[C@H]1O[C@@]2(CCCCO2)CC[C@H]1C`, the “reduction of cell viability by the toxin” value turned out to be 50%.

The record behind these values is publication PMC8958504 (Journal of Medicinal Chemistry, 2022).
